Data reported in article PMC9271048, “Probing strigolactone perception mechanisms with rationally designed small-molecule agonists stimulating germination of root parasitic weeds” (Nature Communications, 2022).

Protein sequences, listed by entry. Tags and fused reporters are not part of them. Residues count along the entry.
UniProt A0A0M3PNA2, 1-271: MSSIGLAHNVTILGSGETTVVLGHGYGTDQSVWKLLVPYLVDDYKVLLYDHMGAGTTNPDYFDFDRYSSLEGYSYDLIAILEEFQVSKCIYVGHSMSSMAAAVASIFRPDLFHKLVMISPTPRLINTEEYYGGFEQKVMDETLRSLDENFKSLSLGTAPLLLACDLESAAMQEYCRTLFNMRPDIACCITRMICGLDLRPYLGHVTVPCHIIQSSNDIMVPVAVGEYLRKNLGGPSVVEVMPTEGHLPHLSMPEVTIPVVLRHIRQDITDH

Each compound was assayed against T1, ShHTL7 (Striga hermonthica, UniProt A0A0M3PNA2) (assay: Competitive inhibition of ShHTL7 with Yoshimulactone Green (YLG) as substrate). Details: read-out: IC50 (Supplementary Table 1); YLG used as the substrate; means ± SD, n = 3.
Experimental: Based on the structural feature of the lead compound 2h, we selected three regions to perform further modification (Supplementary Fig. 6), to try to further improve bioactivity. Insertion of a carbonyl group between the bicyclo[2.2.1]hept-5-en-2-yl group and the piperazine ring was detrimental to binding affinity (Supplementary Fig. 6, region A). Removal of an oxygen atom in region B was found unfavorable to binding affinity as well. Therefore, we focused on modifying the benzene ring (region C) for 2h. A series of compounds with different groups at region C was synthesized (Supplementary Scheme 1). […] The KD values of 3d, 3e, 3f, and 3g were 1.86, 0.65, 0.18, and 0.47 μM, respectively. […] As SPR just measures the binding ability, another independent assay by using Yoshimulactone Green (YLG) as the fluorescent substrate was performed to determine the half-maximal inhibitory concentration (IC50) of these compounds against ShHTL7[22].
According to the reported methods[22],[28], the competitive inhibition of SL receptors (ShHTLs, AtD14, and PaKAI2s) activity by small molecules was performed by using YLG as the substrate at 25 °C. The excitation and emission wavelengths of YLG are 480 and 520 nm, respectively. We used a fluorescence spectrophotometer (CARY Eclipse) to detect the fluorescence intensity change of YLG during the enzymatic hydrolysis assay process. All the testing compounds and YLG were dissolved in DMSO and prepared as stock solutions just before use. A total of 100 μL reaction mixture, which consisted of 4–6 μg recombinant proteins, 3 μM YLG in reaction buffer (100 mM HEPES, 150 mM NaCl, pH 7.0), and 0.0256–400 μM compounds were added to a 96-well black plate (Thermo). The changes of fluorescence at 520 nm of each well were recorded every 1 min for 30 min. Using the reaction mixture without adding enzyme and tested compounds as the background control. After subtracting the background hydrolysis, a linear fluorescence increase in 8 min was used for further inspection. The IC50 values were determined via fitting relative inhibition percentages with the varying concentrations of compounds in Microsoft Excel.
Work on `Cc1cc(Br)ccc1OCC(=O)N1CCN(CC2CC3C=CC2C3)CC1` (single isomer, unassigned) [(2R)-3f] yielded an IC50 of 5670 nM. Compound `O=C(COc1c(F)c(F)c(F)c(F)c1F)N1CCN(CC2CC3C=CC2C3)CC1` (single isomer, unassigned) [(2R)-3g] has an IC50 of 130 nM. Work on `Cc1cc(Br)ccc1OCC(=O)N1CCN(CC2CC3C=CC2C3)CC1` (single isomer, unassigned) [(2S)-3f] yielded an IC50 of 6400 nM. In the case of `O=C(COc1c(F)c(F)c(F)c(F)c1F)N1CCN(CC2CC3C=CC2C3)CC1` (single isomer, unassigned) [(2S)-3g], the IC50 is reported as 2040 nM.

What follows are compounds tested on P. aegyptiaca seeds (assay: P. aegyptiaca seed germination assay). Details: Supplementary Table 1; compounds tested at 10 μM; means ± SD, n = 3.
Experimental: P. aegyptiaca seeds were harvested from Xinjiang province, China in 2017. The seeds were surface sterilized using 1% NaClO solution for 2 min and then washed with distilled water six times. For seed germination assay, about 20 pieces of glass fiber-filter paper discs (15 mm diameter, Whatman GF/B) were placed separately on two layers of filter papers (9 cm diameter, Whatman) in a Petri dish. Five milliliters of distilled water was added to each Petri dish to wet the papers. Approximately 40–90 sterilized seeds were spread onto each glass fiber-filter paper disc. After the seeds were conditioned in the dark at 25 °C for 4 days[48], glass fiber-filter paper discs were blotted dry on filter papers (9 cm) and transferred to the wells of 24-well cell culture plates. The testing compounds were dissolved in acetone and diluted with H2O (VH2O/Vacetone = 999/1) just before use[49]. rac-GR24 and 1‰ acetone solution were used as positive and negative controls, respectively. One hundred microliters of the test solution was added to each well of the plates, and all treatments were performed in three biological repeats. The plates were sealed and incubated in the dark at 25 °C for a week. The experiments were performed at least three times. The germinated seeds were observed by using an electronic magnifier at ×20 magnification.
For `Cc1cc(Br)ccc1OCC(=O)N1CCN(CC2CC3C=CC2C3)CC1` (single isomer, unassigned) [(2R)-3f], the “P. aegyptiaca germination(%)” value was 15.1%. With `O=C(COc1c(F)c(F)c(F)c(F)c1F)N1CCN(CC2CC3C=CC2C3)CC1` (single isomer, unassigned) [(2R)-3g] the “P. aegyptiaca germination(%)” value was 9.1%. In the case of `Cc1cc(Br)ccc1OCC(=O)N1CCN(CC2CC3C=CC2C3)CC1` (single isomer, unassigned) [(2S)-3f], the “P. aegyptiaca germination(%)” value is reported as 6.7±3.4%. With `O=C(COc1c(F)c(F)c(F)c(F)c1F)N1CCN(CC2CC3C=CC2C3)CC1` (single isomer, unassigned) [(2S)-3g] the “P. aegyptiaca germination(%)” value was 9.6%.

What follows are compounds tested against T1, ShHTL7 (assay: not given). Details: read-out: KD (SPR); recombinant ShHTL7 immobilized on CM5 chip, 25 °C.
Work on `Cc1cc(Br)ccc1OCC(=O)N1CCN(CC2CC3C=CC2C3)CC1` (single isomer, unassigned) [(2R)-3f] yielded a Kd of 480 nM. `Cc1cc(Br)ccc1OCC(=O)N1CCN(CC2CC3C=CC2C3)CC1` (single isomer, unassigned) [(2S)-3f] gave a Kd of 1.28 nM.
